# Structure probing of HIV-1 leader RNA with DMS

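Mutant RNA libraries with 1G, 2G or 3G starts, with or without cap, were folded at 37 °C for 30 min. Monomer and dimer bands were cut from native gels after folding in high salt (300 mM KCl, 5 mM MgCl2) or low salt (40 mM KCl, 0.1 mM MgCl2). Each band was probed in the gel with DMS (170 mM, 15 min, 37 °C), with ethanol as control, and sequenced.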

The 5' region of HIV-1 NL4-3 RNA (positions 1-437):
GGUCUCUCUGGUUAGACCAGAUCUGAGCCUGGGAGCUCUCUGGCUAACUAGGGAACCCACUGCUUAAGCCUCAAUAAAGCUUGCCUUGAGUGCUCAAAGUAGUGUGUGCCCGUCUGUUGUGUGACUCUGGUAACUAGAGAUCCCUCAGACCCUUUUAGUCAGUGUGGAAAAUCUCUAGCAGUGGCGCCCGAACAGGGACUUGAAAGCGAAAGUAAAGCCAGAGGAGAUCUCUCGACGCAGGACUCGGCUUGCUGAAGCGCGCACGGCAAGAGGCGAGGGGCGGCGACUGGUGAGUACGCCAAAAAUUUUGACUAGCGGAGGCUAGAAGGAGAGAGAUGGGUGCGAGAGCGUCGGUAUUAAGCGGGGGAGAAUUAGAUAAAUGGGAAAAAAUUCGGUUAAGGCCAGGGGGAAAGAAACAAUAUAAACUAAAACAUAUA

Values are winsor-normalised DMS reactivities of A and C; higher means more reactive, usually unpaired.
One numbering serves 1G, 2G and 3G.
A position is written with its base.

A19 (domain TAR): 1G capped low-salt dimer 0.05; 3G uncapped low-salt dimer 0.05; 3G capped low-salt dimer 0.03; 3G uncapped high-salt dimer 0.03.
A21 (domain TAR): 1G capped low-salt dimer 0.58; 3G uncapped low-salt dimer 0.55; 3G capped low-salt dimer 0.52; 3G uncapped high-salt dimer 0.51.
C23 (domain TAR): 1G capped low-salt dimer 1.08; 3G uncapped low-salt dimer 1.43; 3G capped low-salt dimer 1.23; 3G uncapped high-salt dimer 1.33.
A26 (domain TAR): 1G capped low-salt dimer 0.25; 3G uncapped low-salt dimer 0.08; 3G capped low-salt dimer 0.08; 3G uncapped high-salt dimer 0.08.
C28 (domain TAR): 1G capped low-salt dimer 0.07; 3G uncapped low-salt dimer 0.05; 3G capped low-salt dimer 0.03; 3G uncapped high-salt dimer 0.03.
C29 (domain TAR): 1G capped low-salt dimer 0.15; 3G uncapped low-salt dimer 0.10; 3G capped low-salt dimer 0.08; 3G uncapped high-salt dimer 0.09.
A34 (domain TAR): 1G capped low-salt dimer 0.96; 3G uncapped low-salt dimer 1.12; 3G capped low-salt dimer 1.03; 3G uncapped high-salt dimer 1.07.
C36 (domain TAR): 1G capped low-salt dimer 0.08; 3G uncapped low-salt dimer 0.05; 3G capped low-salt dimer 0.03; 3G uncapped high-salt dimer 0.03.
C38 (domain TAR): 1G capped low-salt dimer 0.05; 3G uncapped low-salt dimer 0.05; 3G capped low-salt dimer 0.03; 3G uncapped high-salt dimer 0.03.
C40 (domain TAR): 1G capped low-salt dimer 0.05; 3G uncapped low-salt dimer 0.05; 3G capped low-salt dimer 0.03; 3G uncapped high-salt dimer 0.03.
C44 (domain TAR): 1G capped low-salt dimer 0.05; 3G uncapped low-salt dimer 0.05; 3G capped low-salt dimer 0.03; 3G uncapped high-salt dimer 0.03.
A46 (domain TAR): 1G capped low-salt dimer 0.10; 3G uncapped low-salt dimer 0.05; 3G capped low-salt dimer 0.03; 3G uncapped high-salt dimer 0.03.
A47 (domain TAR): 1G capped low-salt dimer 0.26; 3G uncapped low-salt dimer 0.15; 3G capped low-salt dimer 0.11; 3G uncapped high-salt dimer 0.13.
C48 (domain TAR): 1G capped low-salt dimer 0.16; 3G uncapped low-salt dimer 0.05; 3G capped low-salt dimer 0.03; 3G uncapped high-salt dimer 0.03.
A50 (domain TAR): 1G capped low-salt dimer 0.28; 3G uncapped low-salt dimer 0.15; 3G capped low-salt dimer 0.12; 3G uncapped high-salt dimer 0.12.
A54 (domain TAR): 1G capped low-salt dimer 0.22; 3G uncapped low-salt dimer 0.16; 3G capped low-salt dimer 0.14; 3G uncapped high-salt dimer 0.14.
A55 (domain TAR): 1G capped low-salt dimer 0.44; 3G uncapped low-salt dimer 0.20; 3G capped low-salt dimer 0.17; 3G uncapped high-salt dimer 0.21.
C56 (domain TAR): 1G capped low-salt dimer 0.14; 3G uncapped low-salt dimer 0.05; 3G capped low-salt dimer 0.03; 3G uncapped high-salt dimer 0.04.
C57 (domain TAR): 1G capped low-salt dimer 0.45; 3G uncapped low-salt dimer 0.05; 3G capped low-salt dimer 0.03; 3G uncapped high-salt dimer 0.03.
C58 (domain PolyA): 1G capped low-salt dimer 0.12; 3G uncapped low-salt dimer 0.05; 3G capped low-salt dimer 0.03; 3G uncapped high-salt dimer 0.03.
A59 (domain PolyA): 1G capped low-salt dimer 0.36; 3G uncapped low-salt dimer 0.74; 3G capped low-salt dimer 0.67; 3G uncapped high-salt dimer 0.68.
C60 (domain PolyA): 1G capped low-salt dimer 0.14; 3G uncapped low-salt dimer 0.55; 3G capped low-salt dimer 0.58; 3G uncapped high-salt dimer 0.56.
C63 (domain PolyA): 1G capped low-salt dimer 0.07; 3G uncapped low-salt dimer 0.53; 3G capped low-salt dimer 0.51; 3G uncapped high-salt dimer 0.46.
A66 (domain PolyA): 1G capped low-salt dimer 1.02; 3G uncapped low-salt dimer 0.82; 3G capped low-salt dimer 0.79; 3G uncapped high-salt dimer 0.81.
A67 (domain PolyA): 1G capped low-salt dimer 0.54; 3G uncapped low-salt dimer 0.69; 3G capped low-salt dimer 0.68; 3G uncapped high-salt dimer 0.66.
C69 (domain PolyA): 1G capped low-salt dimer 0.05; 3G uncapped low-salt dimer 0.11; 3G capped low-salt dimer 0.12; 3G uncapped high-salt dimer 0.10.
C70 (domain PolyA): 1G capped low-salt dimer 0.05; 3G uncapped low-salt dimer 0.06; 3G capped low-salt dimer 0.07; 3G uncapped high-salt dimer 0.07.
C72 (domain PolyA): 1G capped low-salt dimer 0.18; 3G uncapped low-salt dimer 0.14; 3G capped low-salt dimer 0.14; 3G uncapped high-salt dimer 0.12.
A73 (domain PolyA): 1G capped low-salt dimer 0.05; 3G uncapped low-salt dimer 0.05; 3G capped low-salt dimer 0.04; 3G uncapped high-salt dimer 0.03.
A74 (domain PolyA): 1G capped low-salt dimer 0.67; 3G uncapped low-salt dimer 0.85; 3G capped low-salt dimer 0.78; 3G uncapped high-salt dimer 0.74.
A76 (domain PolyA): 1G capped low-salt dimer 0.27; 3G uncapped low-salt dimer 0.26; 3G capped low-salt dimer 0.23; 3G uncapped high-salt dimer 0.24.

The first 2 entries again:

{"position": "A19", "domain": "TAR", "1G capped low-salt dimer": 0.05, "3G uncapped low-salt dimer": 0.05, "3G capped low-salt dimer": 0.03, "3G uncapped high-salt dimer": 0.03}
{"position": "A21", "domain": "TAR", "1G capped low-salt dimer": 0.58, "3G uncapped low-salt dimer": 0.55, "3G capped low-salt dimer": 0.52, "3G uncapped high-salt dimer": 0.51}

Reference: Ye et al. 2022, doi:10.1038/s41594-022-00746-2.